Anti-infective test results gathered from many reports (values: NIAID ChemDB through PubChem).

All rows: whole-cell or culture tests; species: Mycobacterium tuberculosis

a–b is a range or a potency band. MIC50, MIC90 and the like: level of inhibition, or share of isolates inhibited. Blank or dashed fields: not listed here. MIC bound comes from a single tested concentration. ECn is the concentration giving n% inhibition of infection, replication or growth. Inhibition is in % at the dose shown (toxicity tests: loss of growth or viability). Conditions beyond the fields shown may differ between rows.

structure | endpoint | conditions | strain | mutations | tested at | cell line | method | result
CC(C)OC(=O)C1(C(=O)OC(C)C)CC2C(C)NCC2c2c1[nH]c1ccccc21 | MIC | - | H37Ra | - | - | - | - | 16 µg/mL
COc1ccccc1NC(=O)c1c(Nc2cccc(C)c2)[nH]n2c(=O)cc(C)nc12 | MIC | - | H37Rv | - | - | - | resazurin | 3.12 µg/mL
NC[C@H]1O[C@H](O[C@H]2[C@H](O)[C@@H](O[C@H]3O[C@H](CO)[C@@H](O)[C@H](N)[C@H]3O)[C@H](N)C[C@@H]2N)[C@H](O)[C@@H](O)[C@@H]1O | Mean MIC | - | H37Rv | - | - | - | - | 2 µg/mL
CCNC1Oc2cc(C)c(C)cc2C(=O)/C1=C/Nc1ccc2[nH]c(=S)sc2c1 | MIC | - | H37Rv | - | - | - | - | 5 µg/mL
CC1(C)N=c2cc3c(cc2N1c1ccc(Cl)cc1)=Nc1ccccc1N3c1ccc(Cl)cc1 | MIC | - | EMB-R | - | - | - | - | 0.8 µg/mL
C[C@H](c1ccccc1)N1C[C@@]2(ON=C(c3ccccc3)[C@H]2c2ccccc2Cl)C2(ON=C(c3ccccc3)O2)[C@]2(C1)ON=C(c1ccccc1)[C@H]2c1ccccc1Cl | MIC | - | H37Rv | - | - | - | - | 3.44 µM
O=C(N/N=C/c1ccc(/C=N/NC(=O)c2cccnc2)cc1)c1cccnc1 | MIC bound | - | H37Rv | - | - | - | BACTEC | >12.5 µg/mL
Cc1ccc(Nc2[nH]n3c(=O)cc(C)nc3c2C(=O)Nc2ccc(Cl)cc2)c(C)c1 | MIC | - | H37Rv | - | - | - | resazurin | 50 µg/mL
CC1=NN(C(=O)c2ccncc2)C(=O)C1N=Nc1ccc(F)cc1 | MIC | - | H37Rv | - | - | - | BACTEC | ≥12.5 µg/mL
Cc1ccc(Nc2[nH]n3c(=O)cc(C)nc3c2C(=O)Nc2ccc(F)c(Cl)c2)cc1 | MIC | - | H37Rv | - | - | - | resazurin | 12.5 µg/mL
N#CCC(=O)N/N=C/c1coc2ccc([N+](=O)[O-])cc2c1=O | MIC | - | H37Rv | - | - | - | - | 10 µg/mL
Cc1onc(-c2ccccc2Cl)c1C(=O)N[C@@H]1C(=O)N2[C@@H]1SC(C)(C)[C@@H]2C(=O)O | Mean MIC | - | H37Rv | - | - | - | - | >256 µg/mL
CC(C)CCOc1ccc(NC(=S)NC2OC(CO)[C@@H](O)[C@H]2O)cc1 | MIC | - | H37Rv | - | - | - | resazurin | 3.125–6.25 µg/mL
COc1ccc(NC(=O)c2c(Nc3ccc(OC)cc3)[nH]n3c(=O)cc(C)nc23)cc1 | MIC | - | H37Rv | - | - | - | resazurin | 12.5 µg/mL
OC(c1cc(-c2ccc(C(F)(F)F)cc2)nc(C(F)(F)F)c1)C1CCCCN1 | MIC | - | H37Rv | - | - | VERO | - | 6.25 µg/mL
COc1ccccc1OCCNC(=O)c1cc([N+](=O)[O-])cc(C(F)(F)F)c1 | MIC90 | - | H37Rv | - | - | - | resazurin | 2 µg/mL
Cc1cc(=O)n2[nH]c(Nc3ccccc3)c(C(=O)Nc3ccccc3)c2n1 | MIC | - | H37Rv | - | - | - | resazurin | 50 µg/mL
C[C@H](N)C(=O)N[C@@H]1[C@H]2C(=C(O)C[C@@H](O)[C@@H]2O)C(=O)O[C@]1(C)C(Cl)Cl | MIC | - | KM-R | - | - | - | - | 0.8 µg/mL
CCCCCCC#Cc1cncc(-c2nnc(SCc3ccc([N+](=O)[O-])cc3[N+](=O)[O-])n2C)c1 | EC50 | - | - | - | - | - | resazurin | 1.4 µM
CSC(=S)N/N=C(/C)Cc1ccccn1 | MIC | - | KM-R | - | - | - | - | 0.8 µg/mL
CC1=C(C(=O)Nc2cc(C)ccc2C)C(c2ccccc2O)C(C(=O)Nc2cc(C)ccc2C)=C(C)N1 | EC50 | - | H37Rv | - | - | - | - | >2.5 µg/mL
Cc1ccc(Nc2[nH]n3c(=O)cc(C)nc3c2C(=O)Nc2ccc(F)cc2)c(C)c1 | MIC | - | H37Rv | - | - | - | resazurin | 50 µg/mL
CC(=O)O[C@H]1C2=C(C(=O)C(OC(=O)c3ccccc3)=C(C(C)C)C2=O)[C@@]2(C)CCCC(C)(C)[C@@H]2[C@@H]1OC(=O)c1ccccc1 | MIC100 | - | MDR | - | - | - | MTT | 1.56 µg/mL
CCN(CC)CCCCCCNc1cc(OC)cc2c(C)ccnc12 | inhibition | - | H37Rv | - | 12.5 µg/mL | - | BACTEC | 28%
O=[N+]([O-])c1cn2c(n1)OC[C@@H](OCc1ccc(OCc3ccccc3)cc1)C2 | MIC | - | H37Rv-7A2 (PA-824-resistant) | - | - | - | - | >100 µM
CC(=O)O[C@H]1C2=C(C(=O)C(C(=O)Oc3ccc(Cl)cc3)=C(C(C)C)C2=O)[C@@]2(C)CCCC(C)(C)[C@@H]2[C@@H]1O | MIC100 | - | H37Rv | - | - | - | MTT | 25 µg/mL
O=C(NCCOc1ccc(Br)cc1)c1cc([N+](=O)[O-])cc(C(F)(F)F)c1 | MIC90 | - | H37Rv | - | - | - | resazurin | 1 µg/mL
C[C@H](c1ccccc1)N1C[C@@]2(ON=C(c3ccccc3)[C@H]2c2ccc(Cl)cc2Cl)C2(ON=C(c3ccccc3)O2)[C@]2(C1)ON=C(c1ccccc1)[C@H]2c1ccc(Cl)cc1Cl | MIC | - | MDR-TB | - | - | - | - | 1.78 µM
CC(=O)OC1C2=C(C(=O)C(=O)C(C(C)C)=C2O)[C@@]2(C)CCCC(C)(C)[C@@H]2[C@@H]1OC(C)=O | MIC100 | - | H37Rv | - | - | - | MTT | >25 µg/mL
N=C1N=S(=O)(O)N=C(N)/C1=N\Nc1ccc([N+](=O)[O-])cc1 | inhibition | - | H37Rv | - | 6.25 µg/mL | - | resazurin | 7%
CCC(=O)O[C@@H]1C(OC(C)=O)C2=C(C(=O)C(=O)C(C(C)C)=C2O)[C@@]2(C)CCCC(C)(C)[C@H]12 | MIC100 | - | H37Rv | - | - | - | MTT | >25 µg/mL
O=C(Cn1cc(F)c(=O)[nH]c1=O)C12CC3CC(CC(C3)C1)C2 | MIC bound | - | H37Rv | - | - | - | resazurin | >6.25 µg/mL
COc1ncc(F)c2nc(S(=O)(=O)Nc3ncccc3C(C)=O)nn12 | MIC50 | - | X24 | INH RIF resistant | - | - | visual reading | 0.5 µM
COC(=O)C1(C(=O)OC)CCC(=O)n2c1c(/C=C/[N+](=O)[O-])c1ccccc12 | MIC | - | H37Ra | - | - | - | - | 64 µg/mL
C[C@@H]1CN(c2c(F)c(N)c3c(=O)c(C(=O)O)cn(C4CC4)c3c2F)C[C@H](C)N1 | Median MIC | - | H37Ra | - | - | - | - | 0.07 µg/mL
CC(C)OC(=O)C1(C(=O)OC(C)C)CC(C=O)Cc2c1[nH]c1ccccc21 | MIC | - | H37Ra | - | - | - | - | 64 µg/mL
C[C@H](c1ccccc1)N1C/C(=C\c2ccccc2)[C@@]2(ON=C(c3ccc(Cl)cc3)O2)[C@@]2(C1)ON=C(c1ccc(Cl)cc1)[C@@H]2c1ccccc1 | MIC | - | H37Rv | - | - | - | - | 4.56 µM
CN[C@@H]1[C@H](O[C@H]2[C@H](O[C@H]3[C@H](O)[C@@H](O)[C@H](N=C(N)N)[C@@H](O)[C@@H]3N=C(N)N)O[C@@H](C)[C@]2(O)C=O)O[C@@H](CO)[C@H](O)[C@H]1O | Median MIC | - | H37Rv | - | - | - | - | 0.29 µg/mL
C[C@H](c1ccccc1)N1C/C(=C\c2cccc3ccccc23)C(=O)/C(=C/c2cccc3ccccc23)C1 | MIC | - | H37Rv | - | - | - | - | 13.03 µM
CC(C)C1=C(O)C2=C(C(=O)C1=O)[C@@]1(C)CCCC(C)(C)C1C=C2 | MIC100 | - | MDR | - | - | - | MTT | ≤12.5 µg/mL
CCOC1Oc2ccc(Cl)cc2C(=O)/C1=C/Nc1nc2ccc(Cl)cc2s1 | MIC | - | H37Rv | - | - | - | - | 25 µg/mL
CCCCCCC#Cc1cncc(-c2nnc(SCc3cc([N+](=O)[O-])cc([N+](=O)[O-])c3)n2C)c1 | EC50 | - | - | - | - | - | resazurin | 0.34 µM
Cc1csc(C(C)(O)c2nnc(Nc3ncn(Cc4c(F)cccc4F)n3)s2)n1 | MIC | - | M103L | - | - | - | - | >25 µM
Cc1ccc2occ(/C=N/NC(=O)c3ccccc3O)c(=O)c2c1 | MIC | - | H37Rv | - | - | - | - | 100 µg/mL
CC(C)OC(=O)C1(C(=O)OC(C)C)C[C@H]2CNC[C@H]2c2c1[nH]c1ccccc21 | MIC | - | H37Ra | - | - | - | - | 32 µg/mL
Cc1cc(=O)n2[nH]c(Nc3ccc(F)c(F)c3)c(C(=O)Nc3ccc(F)cc3)c2n1 | MIC | - | H37Rv | - | - | - | resazurin | 0.8 µg/mL
CO[C@H]1/C=C/O[C@@]2(C)Oc3c(C)c(O)c4c(=O)c(c5oc6cc(N7CCN(CC(C)C)CC7)cc(=O)c6nc5c4c3=C2O)NC(=O)/C(C)=C\C=C\[C@H](C)[C@H](O)[C@@H](C)[C@@H](O)[C@@H](C)[C@H](OC(C)=O)[C@@H]1C | inhibition | inside macrophages | H37Rv | - | 10 µg/mL | - | - | 98.8%
CONc1ncnc2c1n(C/C=C(\C)CC/C=C(\C)CCC1CCCCC1)c[n+]2C | inhibition | - | - | - | 6.25 µg/mL | - | - | 99%
Cc1[nH]c(N)nc(=S)c1CCC(=O)Nc1ccc(C(=O)NC(CCC(=O)O)C(=O)O)cc1 | MIC bound | - | H37Rv | - | - | - | BACTEC | >12.5 µg/mL
CC1=[N+]([O-])CC2c3c([nH]c4ccccc34)C(C(=O)OC(C)C)(C(=O)OC(C)C)CC12 | MIC | - | H37Ra | - | - | - | - | 256 µg/mL
CC(C)=CCC(OC(=O)CC(C)C)C1=CC(=O)c2c(O)ccc(O)c2C1=O | MIC | - | PZA-R | - | - | - | - | >12.5 µg/mL
CO[C@H]1/C=C/O[C@@]2(C)Oc3c(C)c(O)c4c(O)c(c(/C=N/N5CCN(C6CCCC6)CC5)c(O)c4c3C2=O)NC(=O)/C(C)=C\C=C\[C@H](C)[C@H](O)[C@@H](C)[C@@H](O)[C@@H](C)[C@H](OC(C)=O)[C@@H]1C | MIC | - | Isolate 880902 rifampicin-resistant | - | - | - | - | 64 µg/mL
NNC(=O)c1ccncc1 | Mean MIC | - | H37Rv | - | - | - | - | 0.044 µg/mL
N=C(N)CCNC(=O)C1CCC(N)=N1 | MIC bound | - | H37Rv | - | - | - | BACTEC | >12.8 µg/mL
CC(=O)Oc1c(C/C=C(\C)CC/C=C(\C)CCC=C(C)C)c(=O)oc2ccccc12 | MIC | - | H37Rv | - | - | - | - | >12.5 µg/mL
O=c1oc2c(O)c(O)cc3c(=O)oc4c(O)c(O)cc1c4c23 | inhibition | - | H37Rv | - | 12.5 µg/mL | - | BACTEC | 15%
C[C@H](c1ccccc1)N1C/C(=C/c2ccccc2Cl)[C@]2(ON=C(c3ccc(Cl)cc3)O2)C2(C1)ON=C(c1ccc(Cl)cc1)[C@H]2c1ccccc1Cl | MIC | - | H37Rv | - | - | - | - | 2.06 µM
COc1cc(O)c(C(C)c2ccccc2)cc1N=NC(N)=O | inhibition | - | H37Rv | - | 12.5 µg/mL | - | BACTEC | 39%
NNC(=O)c1ccncc1 | MIC | - | - | - | - | - | - | 0.03 µg/mL
CCOC(=O)N1C(=O)c2ccccc2S1(=O)=O | inhibition | - | H37Rv | - | 6.25 µg/mL | - | BACTEC | 0%
CCC(=O)OC1=C(C(C)C)C(=O)C2=C(C1=O)[C@@]1(C)CCCC(C)(C)[C@@H]1[C@H](OC(=O)CC)C2OC(C)=O | MIC100 | - | H37Rv | - | - | - | MTT | 25 µg/mL
CCCCCC1(C)Cn2cc([N+](=O)[O-])nc2O1 | MIC | - | H37Rv-T3 (PA-824-resistant) | - | - | - | - | >100 µM
Cc1c2c(n(C)c1C(=O)N1CCCCC1)CCCC2=O | MIC bound | - | H37Rv | - | - | - | BACTEC | >6.25 µg/mL
CC(C)CCOc1ccc(NC(=S)Nc2ccc(OCCC(C)C)cc2)cc1 | MIC | - | H37Rv | - | - | - | resazurin | 2.5–5 µg/mL
C[C@H](c1ccccc1)N1C[C@@]2(ON=C(c3ccc(Cl)cc3)[C@H]2c2ccc(Cl)cc2Cl)C2(ON=C(c3ccc(Cl)cc3)O2)[C@]2(C1)ON=C(c1ccc(Cl)cc1)[C@H]2c1ccc(Cl)cc1Cl | MIC | - | H37Rv | - | - | - | - | 0.8 µM
O=c1[nH][nH]c(=O)c2c1nc(SCc1ccc(Cl)cc1Cl)n2Cc1ccccc1 | MIC bound | - | H37Rv | - | - | - | BACTEC | >12.5 µg/mL
CC1=C(C(=O)Nc2ccc(C)cc2C)C(c2cccc([N+](=O)[O-])c2)C(C(=O)Nc2ccc(C)cc2C)=C(C)N1 | inhibition | - | H37Rv | - | 2.5 µg/mL | - | - | 53%
CONc1ncnc2c1n(C/C=C(\C)CC/C=C(\C)CC/C=C(\C)CCC=C(C)C)c[n+]2C | inhibition | - | - | - | 6.25 µg/mL | - | - | 100%
O=[N+]([O-])c1ccc(N/N=C/c2c(O)ccc3ccccc23)nc1 | MIC bound | - | H37Rv | - | - | - | BACTEC | >12.5 µg/mL
CC1=C(C(=O)Nc2ccc([N+](=O)[O-])cc2)C(c2ccc(Cl)cc2)C(C(=O)Nc2ccc([N+](=O)[O-])cc2)=C(C)N1 | inhibition | - | H37Rv | - | 2.5 µg/mL | - | - | 62%
O=C1c2cccnc2-c2nccc3c2c1nc1ccccc13 | MIC | - | H37Rv | - | - | VERO | resazurin | 0.05 µg/mL
N#CCC(=O)N/N=C/c1coc2ccccc2c1=O | MIC | - | H37Rv | - | - | - | - | 10 µg/mL
COC1OC2CCN(C(=O)OCc3ccccc3)C2C1OCc1ccccc1 | inhibition | - | H37Rv | - | 12.5 µg/mL | - | BACTEC | 0%
CC(C)c1cc2c(cc1O)[C@@]1(C)CCCC(C)(C)C1CC2 | inhibition | - | H37Rv | - | 12.5 µg/mL | - | - | 0%

Repeating the final 4 entries:

structure | endpoint | conditions | strain | mutations | tested at | cell line | method | result
O=C1c2cccnc2-c2nccc3c2c1nc1ccccc13 | MIC | - | H37Rv | - | - | VERO | resazurin | 0.05 µg/mL
N#CCC(=O)N/N=C/c1coc2ccccc2c1=O | MIC | - | H37Rv | - | - | - | - | 10 µg/mL
COC1OC2CCN(C(=O)OCc3ccccc3)C2C1OCc1ccccc1 | inhibition | - | H37Rv | - | 12.5 µg/mL | - | BACTEC | 0%
CC(C)c1cc2c(cc1O)[C@@]1(C)CCCC(C)(C)C1CC2 | inhibition | - | H37Rv | - | 12.5 µg/mL | - | - | 0%